{"source": "PubChem BioAssay AID1259414 (Drosophila RNAi Screening Center, 2018)", "assay": "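Host factors increasing or decreasing Wolbachia levels in cultured fly cells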 (primary screen)", "system": "Drosophila JW18 cells infected with Wolbachia", "knock-down reagent": "long dsRNA against Drosophila genes, 0.25 µg dsRNA per well of a 384-well plate", "timing": "5 days", "treatment": "cells persistently infected with Wolbachia before knock-down; no added drug", "read-out": "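Imaged fluorescence in situ signal for Wolbachia 23S rRNA per DAPI-counted host cell, given as a robust z-score within each plate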", "scale": "Wolbachia per cell robust z: higher = more Wolbachia per host cell than the plate typical", "active means": "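Active if absolute robust z reaches 1.5 in two or more of three replicates, leaving out multi- or no-target dsRNAs, genes unexpressed in JW18 and A1 wells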", "note": "In all, the deposit lists about 24,000 reagents; this is an unselected part of those with a known target gene and a result. Of all reagents, about 1,210 (5%) are marked active. 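Inactive calls also include excluded dsRNAs with several or no targets, genes unexpressed in JW18, and well A1, regardless of score.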 A number with no mark means an inactive call. Names joined by + are all predicted targets of the reagent."}
{"gene": "plum (GeneID 43197)", "amplicon": "DRSC16054", "Wolbachia per cell robust z, rep 1": 0.523, "Wolbachia per cell robust z, rep 2": -1.73, "Wolbachia per cell robust z, rep 3": 0.466}
{"gene": "Zasp52 (GeneID 36740)", "amplicon": "DRSC06269", "Wolbachia per cell robust z, rep 1": 0.711, "Wolbachia per cell robust z, rep 2": 0.755, "Wolbachia per cell robust z, rep 3": -2.05}
{"gene": "Zasp52 (GeneID 36740)", "amplicon": "DRSC07121", "Wolbachia per cell robust z, rep 1": -0.0243, "Wolbachia per cell robust z, rep 2": 0.325, "Wolbachia per cell robust z, rep 3": -0.57}
{"gene": "Arf1 (GeneID 40506)", "amplicon": "DRSC11606", "Wolbachia per cell robust z, rep 1": -1.09, "Wolbachia per cell robust z, rep 2": -0.00322, "Wolbachia per cell robust z, rep 3": -3.8}
{"gene": "dysf (GeneID 43174)", "amplicon": "DRSC14529", "Wolbachia per cell robust z, rep 1": 0.642, "Wolbachia per cell robust z, rep 2": -1.49, "Wolbachia per cell robust z, rep 3": -2.5}
{"gene": "dysf (GeneID 43174)", "amplicon": "DRSC14895", "Wolbachia per cell robust z, rep 1": -2.65, "Wolbachia per cell robust z, rep 2": 0.381, "Wolbachia per cell robust z, rep 3": 0.338}
{"gene": "dysf (GeneID 43174)", "amplicon": "DRSC14896", "Wolbachia per cell robust z, rep 1": 0.442, "Wolbachia per cell robust z, rep 2": 0.87, "Wolbachia per cell robust z, rep 3": 2.06}
{"gene": "CG7289 (GeneID 33372)", "amplicon": "DRSC00697", "Wolbachia per cell robust z, rep 1": -3.63, "Wolbachia per cell robust z, rep 2": 0.377, "Wolbachia per cell robust z, rep 3": 0.0565}
{"gene": "CG15576 (GeneID 31369)", "amplicon": "DRSC18064", "Wolbachia per cell robust z, rep 1": -0.466, "Wolbachia per cell robust z, rep 2": 0.07, "Wolbachia per cell robust z, rep 3": -0.122}
{"gene": "CG42518 + MED9", "amplicon": "DRSC06917", "Wolbachia per cell robust z, rep 1": -3.68, "Wolbachia per cell robust z, rep 2": -2.23, "Wolbachia per cell robust z, rep 3": -10.3}
{"gene": "CG33111 (GeneID 50068)", "amplicon": "DRSC14208", "Wolbachia per cell robust z, rep 1": -0.236, "Wolbachia per cell robust z, rep 2": -0.318, "Wolbachia per cell robust z, rep 3": 0.578}
{"gene": "CG33111 (GeneID 50068)", "amplicon": "DRSC14444", "Wolbachia per cell robust z, rep 1": -2.38, "Wolbachia per cell robust z, rep 2": 0.915, "Wolbachia per cell robust z, rep 3": -0.681}
{"gene": "CG11444 (GeneID 31388)", "amplicon": "DRSC17784", "Wolbachia per cell robust z, rep 1": -0.206, "Wolbachia per cell robust z, rep 2": -0.197, "Wolbachia per cell robust z, rep 3": -0.792}
{"gene": "CG11444 (GeneID 31388)", "amplicon": "DRSC24827", "Wolbachia per cell robust z, rep 1": -1.13, "Wolbachia per cell robust z, rep 2": -0.199, "Wolbachia per cell robust z, rep 3": -13.8}
{"gene": "ND-20L (GeneID 43477)", "amplicon": "DRSC15414", "Wolbachia per cell robust z, rep 1": -4.35, "Wolbachia per cell robust z, rep 2": -0.55, "Wolbachia per cell robust z, rep 3": -1.14}
{"gene": "Ald1 (GeneID 43183)", "amplicon": "DRSC14109", "Wolbachia per cell robust z, rep 1": -0.287, "Wolbachia per cell robust z, rep 2": -0.389, "Wolbachia per cell robust z, rep 3": 0.109}
{"gene": "Ald1 (GeneID 43183)", "amplicon": "DRSC25381", "Wolbachia per cell robust z, rep 1": 1.1, "Wolbachia per cell robust z, rep 2": 1.04, "Wolbachia per cell robust z, rep 3": -0.0834}
{"gene": "Ald1 (GeneID 43183)", "amplicon": "DRSC40825", "Wolbachia per cell robust z, rep 1": -0.808, "Wolbachia per cell robust z, rep 2": -0.974, "Wolbachia per cell robust z, rep 3": 0.851}
{"gene": "CG18324 (GeneID 36568)", "amplicon": "DRSC06721", "Wolbachia per cell robust z, rep 1": -0.747, "Wolbachia per cell robust z, rep 2": -2.35, "Wolbachia per cell robust z, rep 3": -0.275}
{"gene": "CG18324 (GeneID 36568)", "amplicon": "DRSC26600", "Wolbachia per cell robust z, rep 1": -0.321, "Wolbachia per cell robust z, rep 2": -0.114, "Wolbachia per cell robust z, rep 3": -0.783}
{"gene": "tty (GeneID 33109)", "amplicon": "DRSC20588", "Wolbachia per cell robust z, rep 1": 0.46, "Wolbachia per cell robust z, rep 2": 0.872, "Wolbachia per cell robust z, rep 3": -0.825}
{"gene": "tty (GeneID 33109)", "amplicon": "DRSC26868", "Wolbachia per cell robust z, rep 1": -0.972, "Wolbachia per cell robust z, rep 2": -0.55, "Wolbachia per cell robust z, rep 3": 0.404}
{"gene": "GalT1 (GeneID 36279)", "amplicon": "DRSC22238", "Wolbachia per cell robust z, rep 1": 0.815, "Wolbachia per cell robust z, rep 2": 0.412, "Wolbachia per cell robust z, rep 3": -0.449}
{"gene": "CG8483 (GeneID 41623)", "amplicon": "DRSC16430", "Wolbachia per cell robust z, rep 1": -0.185, "Wolbachia per cell robust z, rep 2": -0.27, "Wolbachia per cell robust z, rep 3": -0.251}
